Results: paper PMC8777605 (Pharmaceuticals, 2021)

System: SARS-CoV-2 gamma strain (P1, B.1.1.28)

COC(=O)N[C@H](C(=O)N[C@@H](Cc1ccccc1)[C@@H](O)CN(Cc1ccc(-c2ccccn2)cc1)NC(=O)[C@@H](NC(=O)OC)C(C)(C)C)C(C)(C)C [ATV, atazanavir]
SI (CC50/EC50): 782
